Article PMC8725163 (Acta Crystallographica. Section D, Structural Biology, 2022)

Target: T1, BpsDsbA (oxidized) (Burkholderia pseudomallei, UniProt Q63Y08)
T1 construct: gene dsbA
Conditions: oxidized form; 100 uM protein, 50 mM HEPES, 25 mM NaCl, 2 mM EDTA, 2% d6-DMSO, pH 6.8; cryptic pocket at Tyr110 near active site

For bromophenoxy propanamide [compound 1], the Kd was greater than 2 mM.
